A mixed list of measured activities; the numbers were collected in NIAID ChemDB.

All rows: tests in culture; species: Mycobacterium tuberculosis

MIC bound comes from a single tested concentration. A number after MIC or MFC names an inhibition level or a share of isolates. An empty or dashed field is not shown. Fold resistance: result on the changed form divided by that on wild type. Two numbers with a dash give a range or band. Percent inhibition refers to the dose given; in toxicity tests it is the harm to the cells. ECn: concentration that inhibits the pathogen or its effect by n%. Neighbouring rows are from separate reports.

SMILES | mutations | method | setting | tested at | strain or isolate | endpoint | value
O=C(NNC(=S)Nc1cccc(C(F)(F)F)c1)c1ccncc1 | - | resazurin | - | - | H37Rv | MIC | 6.25 µg/mL
CN(Cc1ccccc1C(F)(F)F)C1CCN(c2ccc(OC[C@@]3(C)Cn4cc([N+](=O)[O-])nc4O3)cc2)CC1 | - | - | - | - | H37Rv | MIC | <0.008 µg/mL
CCCCc1nc(Cl)c(C2C(C(=O)Nc3cccc([N+](=O)[O-])c3)=C(C)NC(C)=C2C(=O)Nc2cccc([N+](=O)[O-])c2)[nH]1 | - | resazurin | - | 6.25 µg/mL | H37Rv | inhibition | 85%
C#CCNCCCn1c(=O)nc2n(-c3ccccc3)c3ccccc3nc-2c1=O | - | BACTEC | - | 12.5 µg/mL | H37Rv | inhibition | 47%
O=C(CSc1nnc(-c2ccc3ncccc3c2)o1)Nc1nc2ccccc2s1 | - | agar | - | - | H37Rv | MIC | 250 µg/mL
NNC(=O)c1ccncc1 | - | - | - | - | H37Rv | MIC | 0.05 µg/mL
COC(=O)/C=C/c1cc(OC)c2oc(-c3ccc4c(c3)OCO4)cc2c1 | - | broth dilution / turbidity | - | - | H37Rv (ATCC 27294) | MIC | >50 µg/mL
CCCCc1nc(Cl)c(C2C(C(=O)Nc3ccc(F)cc3)=C(C)NC(C)=C2C(=O)Nc2ccc(F)cc2)[nH]1 | - | - | - | - | H37Rv | MIC | 0.02 µg/mL
Cc1cc(O)c2ncccc2c1 | - | - | - | - | M 607 | MIC50 | 5 µg/mL
NNC(=O)c1ccncc1 | - | - | - | - | H37Rv | MIC | 0.03 µg/mL
Cc1c(Sc2ccccc2)[n+](=O)c2cc(C(F)(F)F)ccc2n1[O-] | - | - | - | - | H37Rv | MIC | 0.78 µg/mL
O=C1c2cc(OC(F)(F)F)ccc2-n2c1nc1ccccc1c2=O | - | - | - | - | H37Rv | MIC | 0.03 µg/mL
O=C(CSc1nnc(-c2ccc3ncccc3c2)o1)Nc1nc2ccc(I)cc2s1 | - | agar | - | - | H37Rv | MIC | 200 µg/mL
CC1SC2(CCCCC2C)N(NC(=O)C(O)(c2ccccc2)c2ccccc2)C1=O | - | - | - | 6.25 µg/mL | H37Rv | inhibition | 38%
CN(C/C=C/c1ccc(C(F)(F)F)cc1)c1ccc(OC[C@@]2(C)Cn3cc([N+](=O)[O-])nc3O2)cc1 | - | - | - | - | H37Rv | MIC | 0.024 µg/mL
CCCCCCC(C)c1ccc2c(c1)C(=O)c1nc3ccncc3c(=O)n1-2 | - | - | - | - | H37Rv | MIC | 0.015 µg/mL
CCCCc1ccc(O)c2ncccc12 | - | - | - | - | H37Rv | MIC50 | >10 µg/mL
CN(N=O)C(=O)NC1C(O)C(CO)OC1n1ccc(=O)[nH]c1=O | - | BACTEC | - | - | H37Rv | MIC bound | >12.5 µg/mL
O=C(CSc1nnc(-c2ccc3ncccc3c2)o1)Nc1ccc(I)cc1 | - | agar | - | - | H37Rv | MIC | 200 µg/mL
CC1COc2c(N3CCN(C)CC3)c(F)cc3c(=O)c(C(=O)O)cn1c23 | - | - | - | - | - | MIC50 | 0.5–1.3 µg/mL
CCCCc1nc(Cl)c(C2C(C(=O)Nc3ccccc3C)=C(C)NC(C)=C2C(=O)Nc2ccccc2C)[nH]1 | - | resazurin | - | 6.25 µg/mL | H37Rv | inhibition | 46%
C[C@@H]1CN(c2c(F)c(N)c3c(=O)c(C(=O)O)cn(C4CC4)c3c2F)C[C@H](C)N1 | - | - | - | - | - | MIC90 | 0.5 µg/mL
CN(c1ccc(OC(F)(F)F)cc1)C1CCN(c2ccc(OC[C@@]3(C)Cn4cc([N+](=O)[O-])nc4O3)cc2)CC1 | - | - | - | - | H37Rv | MIC | 0.012 µg/mL
Cc1ccc2c(c1)C(=O)c1nc3ccncc3c(=O)n1-2 | - | - | - | - | H37Rv | MIC | 0.13 µg/mL
COc1ccc2c(c1OC)C(CC(C)=O)N(C)c1c-2ccc2cc3c(cc12)OCO3 | - | broth dilution / turbidity | - | - | H37Ra ATCC 25177 | MIC | >50 µg/mL
CCOc1cc2c(cc1F)[n+](=O)c(Sc1ccccc1)c(C)n2[O-] | - | - | - | 6.25 µg/mL | H37Rv | inhibition | 0%
COc1ccc2c3c1OC1C(=O)C4CC5(c6c(O)ccc(O)c64)C(C2)N(C)CCC315 | - | BACTEC | - | 12.5 µg/mL | H37Rv | inhibition | 13%
O=C(CSc1nnc(-c2ccc3ncccc3c2)o1)Nc1ccc([N+](=O)[O-])cc1 | - | agar | - | - | H37Rv | MIC | 62.5 µg/mL
O=C(O)c1ccc2cccnc2c1O | - | - | - | - | H37Rv | MIC50 | 10 µg/mL
Cc1cc2c(cc1Cl)Sc1ncc(C)n1S2(=O)=O | - | resazurin | - | - | H37Rv | MIC bound | >6.25 µg/mL
C[C@]1(COc2ccc(N3CCC(COCc4ccc(F)cc4Cl)CC3)cc2)Cn2cc([N+](=O)[O-])nc2O1 | - | - | - | - | H37Rv | MIC | 0.024 µg/mL
C=C/C=C/CC1=C(C)[C@@H](OC(=O)[C@@H]2[C@@H](/C=C(\C)C(=O)OC)C2(C)C)CC1=O | - | - | - | - | H37Rv | MIC | 32 µg/mL
O=C1C(CO)=C[C@@H](O)[C@H]2O[C@@H]12 | - | BACTEC | - | - | H37Rv | MIC bound | >12.8 µg/mL
CC(C)(C)c1ccc(NC(=O)c2ccc(Cl)cc2O)cc1 | - | - | - | - | My 331/88 | MIC | 16 µM
O=C1c2ccccc2-n2c1nc1cc(F)ccc1c2=O | - | - | - | - | H37Rv | MIC | 0.06 µg/mL
c1cc2c(s1)CCOC21CCN(Cc2ccc3c(c2)OCCO3)CC1 | MmpL3: Ser591Ile | fluorescence | - | - | H37Rv | fold resistance | ≥33.3
Cc1ccc(O)c2ncccc12 | - | - | - | - | H37Rv | MIC50 | 0.5–1 µg/mL
O=C1OCC(Cc2ccc3c(c2)OCO3)/C1=C\c1ccc2c(c1)OCO2 | - | broth dilution / turbidity | - | - | H37Rv (ATCC 27294) | MIC | >50 µg/mL
CC1=CC(C)(C)NC(=S)N1c1ccc(N(C)C)cc1 | - | resazurin | - | 6.25 µg/mL | H37Rv | inhibition | 0%
COc1c(N2C[C@@H]3CCCN[C@@H]3C2)c(F)cc2c(=O)c(C(=O)O)cn(C3CC3)c12 | - | - | - | - | 5 isolates drug-resistant | MIC50 | 0.062 µg/mL
CO[C@H]1/C=C/O[C@@]2(C)Oc3c(C)c(O)c4c(=O)c(c5oc6cc(N7CCN(CC(C)C)CC7)cc(=O)c6nc5c4c3=C2O)NC(=O)/C(C)=C\C=C\[C@H](C)[C@H](O)[C@@H](C)[C@@H](O)[C@@H](C)[C@H](OC(C)=O)[C@@H]1C | - | - | inside macrophages | 1 µg/mL | Watanabe | inhibition | 8.3%
CCC#CC#CCN(C)c1cccc2c1CCC(=O)N2 | - | - | - | 6.25 µg/mL | H37Rv | inhibition | 27%
O=C1c2ccc(Cl)cc2-n2c1nc1ccccc1c2=O | - | - | - | - | H37Rv | MIC | 0.13 µg/mL
NNOC(=O)c1ccc2cccnc2c1O | - | - | - | - | M 607 | MIC50 | >25 µg/mL
CCCCc1nc(Cl)c(C2C(C(=O)Nc3ccc(OC)cc3)=C(C)NC(C)=C2C(=O)Nc2ccc(OC)cc2)[nH]1 | - | resazurin | - | 6.25 µg/mL | H37Rv | inhibition | 66%
C[C@]1(COc2ccc(N3CCC(N4CCN(c5ccc(OC(F)(F)F)cc5)CC4)CC3)cc2)Cn2cc([N+](=O)[O-])nc2O1 | - | - | - | - | H37Rv | MIC | 0.024 µg/mL
O=[N+]([O-])c1ccccc1S(=O)(=O)c1ccccc1 | - | resazurin | - | - | H37Rv | MIC bound | >6.25 µg/mL
CCCCc1ccc(NC(=O)c2cc(Cl)ccc2O)cc1 | - | - | - | - | My 331/88 | MIC | 4 µM
O=C(CSc1nnc(-c2ccc3ncccc3c2)o1)Nc1nc2ccc([N+](=O)[O-])cc2s1 | - | agar | - | - | H37Rv | MIC | 50 µg/mL
CC#CC#C/C=C1\C=CC2(OC=CC2OC(C)=O)O1 | - | - | - | - | H37Rv | MIC | 12.5 µg/mL
CC1=CC[C@]2(C)CC[C@@]3(C)[C@H](C(C(C)C)=C[C@@H]3O)[C@H]2CC1 | - | resazurin | - | - | H37Rv | EC50 | 6.25 µg/mL
CN1CCN(c2cc3c(cc2F)c(=O)c(C(=O)O)cn3C2CC2)CC1 | - | - | - | - | - | MIC90 | 0.5 µg/mL
CCCCc1nc(Cl)c(C2C(C(=O)Nc3cccc(OC)c3)=C(C)NC(C)=C2C(=O)Nc2cccc(OC)c2)[nH]1 | - | resazurin | - | 6.25 µg/mL | H37Rv | inhibition | 78%
CN1C(=O)N(Br)C(C)(C)C1=O | - | BACTEC | - | 12.5 µg/mL | H37Rv | inhibition | 0%
O=[N+]([O-])c1cn2c(n1)O[C@@H](COc1ccc(N3CCC(Cc4ccc(OC(F)(F)F)cc4)CC3)cc1)C2 | - | - | - | - | H37Rv | MIC | 0.024 µg/mL
Nc1nc(N)c(N=Nc2ccc(SCC(=O)O)cc2)c(=O)[nH]1 | - | BACTEC | - | - | H37Rv | MIC bound | >12.5 µg/mL
O=C1CSC2(CCCC2)N1NC(=O)C(O)(c1ccccc1)c1ccccc1 | - | - | - | 6.25 µg/mL | H37Rv | inhibition | 0%
CN(C)c1ccc(N=Nc2ccc(N(C)C)cc2)cc1 | - | resazurin | - | - | H37Rv | MIC bound | >6.25 µg/mL
CC[C@H]1OC(=O)[C@H](C)[C@@H](O[C@H]2C[C@@](C)(OC)[C@@H](O)[C@H](C)O2)[C@H](C)[C@@H](O[C@@H]2O[C@H](C)C[C@H](N(C)C)[C@H]2O)[C@](C)(OC)C[C@@H](C)C(=O)[C@H](C)[C@@H](O)[C@]1(C)O | - | - | - | - | H37Ra | MIC | 0.06–0.5 µg/mL
Cc1c(Cl)[n+](=O)c2cc(Cl)ccc2n1[O-] | - | - | - | - | H37Rv | MIC | 1.56 µg/mL
Cc1c2ccn(O)cc2c(C)c2c1nc1ccccc12 | - | BACTEC | - | - | H37Rv | MIC | ≥12.5 µg/mL
CCCCCCCc1ccc(NC(=O)c2cc(Cl)ccc2O)cc1 | - | - | - | - | My 331/88 | MIC | 4 µM
CC(C)=C[C@@H]1C[C@H](C)[C@H]2CC[C@H](C)c3c2c1c(C)c1ncoc31 | - | - | - | - | - | EC50 | <12.5 µg/mL
C[C@]1(COc2ccc(N3CCN(C/C=C/c4cccc(OC(F)(F)F)c4)CC3)cc2)Cn2cc([N+](=O)[O-])nc2O1 | - | - | - | - | H37Rv | MIC | 0.012 µg/mL
O=C(O)c1cn(C2CC2)c2cc(N3CCN(c4ccccc4)CC3)c(F)cc2c1=O | - | - | - | - | - | MIC50 | 2 µg/mL
CCCCCCCCCCCC(=O)CC1c2c(ccc(OC)c2OC)-c2ccc3cc4c(cc3c2N1C)OCO4 | - | broth dilution / turbidity | - | - | H37Ra ATCC 25177 | MIC | >50 µg/mL
C/C(=N\N1CC(=O)NC1=O)c1ccc([N+](=O)[O-])o1 | - | BACTEC | - | - | H37Rv | MIC bound | >12.5 µg/mL
CN[C@@H]1[C@H](O[C@H]2[C@H](O[C@H]3[C@H](O)[C@@H](O)[C@H](N=C(N)N)[C@@H](O)[C@@H]3N=C(N)N)O[C@@H](C)[C@]2(O)C=O)O[C@@H](CO)[C@H](O)[C@H]1O | - | - | - | - | 4308/95 (streptomycin-resistant) | MIC | 25–50 µg/mL
Cc1onc(-c2ccccc2Cl)c1C(=O)Nc1ccccc1CC1c2ccccc2CCN1C | - | resazurin | - | 6.25 µg/mL | H37Rv | inhibition | 41%
CC1=CC[C@]2(C)C[C@H](O)[C@@]3(C)[C@H](C(C(C)C)=C[C@@H]3O)[C@H]2CC1 | - | resazurin | - | 6.25 µg/mL | H37Rv | inhibition | 30%
CCOC(=O)c1cn(Cc2ccccc2)c(=O)n1Cc1ccccc1 | - | BACTEC | - | - | H37Rv | MIC bound | >12.5 µg/mL
CCCCc1ccc(NC(=O)c2cc(Br)ccc2O)cc1 | - | - | - | - | My 331/88 | MIC | 8 µM
CCCCCCCCCC(=O)Oc1c2ccoc2cc2oc(=O)ccc12 | - | resazurin | - | - | H37Rv | MIC bound | >6.25 µg/mL
COc1c(O)ccc2c1cnc1c3cc4c(cc3ccc21)OCO4 | - | broth dilution / turbidity | - | - | H37Rv (ATCC 27294) | MIC | 1.6 µg/mL
CCCc1ccc(NC(=O)c2ccc(Cl)cc2O)cc1 | - | - | - | - | My 331/88 | MIC | 2 µM
CCCC1CCC2(CC1)SC(C)C(=O)N2NC(=O)C(O)(c1ccccc1)c1ccccc1 | - | - | - | 6.25 µg/mL | H37Rv | inhibition | 64%
Cc1ccc2ccccc2c1CC(=O)NN | - | BACTEC | - | - | H37Rv | MIC bound | >12.5 µg/mL
O=C(CSc1nnc(-c2ccc3ncccc3c2)o1)Nc1ccc(Cl)cc1 | - | agar | - | - | H37Rv | MIC | 62.5 µg/mL
CCCCCCCCCCCCCCCC1=NN(c2ccccc2)C(=O)C1NC(=O)O | - | BACTEC | - | - | H37Rv | MIC | ≥12.8 µg/mL
COc1ccc2c(cnc3c4cc5c(cc4ccc23)OCO5)c1OC | - | broth dilution / turbidity | - | - | H37Rv (ATCC 27294) | MIC | >50 µg/mL
CC1CCCCC12SCC(=O)N2NC(=O)C(O)(c1ccccc1)c1ccccc1 | - | - | - | 6.25 µg/mL | H37Rv | inhibition | 0%
CCCCc1ccc(NC(=O)c2cc(Br)cc(Br)c2O)cc1 | - | - | - | - | My 331/88 | MIC | 32 µM
CC1=C2C(=O)[C@H]3[C@@H](CC=C4C[C@@H](O)CC[C@@]43C)[C@@H]2CC[C@]12O[C@@H]1C[C@H](C)CN[C@H]1[C@H]2C | - | BACTEC | - | 128 µg/mL | H37Rv | inhibition | 99%
CCCCc1nc(Cl)c(C2C(C(=O)Nc3ccccc3F)=C(C)NC(C)=C2C(=O)Nc2ccccc2F)[nH]1 | - | resazurin | - | 6.25 µg/mL | H37Rv | inhibition | 95%